Patent publication US9114107B2, “Compositions for inhibiting virus entry and promoting virolysis, and methods thereof” (priority 2010, dated 2015)

Columns and labels:
[1] = system: HIV-1BaL pseudotype virus; assay type: biochemical
[2] = system: purified virus like particle (VLP); assay: DLS measurement of VLP stability; design: species or system HIV-1; conditions: 30 min incubation; drop of 90-100 nm peak, rise of 10-14 nm peak
Description: To validate the results the stability of the VLP was also tested using DLS. […] As controls, intact purified VLP as well as YU2 GP120 trimer was used. The inhibitor and VLP were incubated for 30 minutes prior to diameter testing using DLS (FIG. 7).
FIG. 7 illustrates the validation of the viral instability caused by the inhibitor using DLS. The intact virus was approximately 90-100 nm showing consistency.

[3] = system: recombinant virus pseudotyped with the envelope for HIV-1BaL; assay type: cell-based; conditions: read-out: IC50, inhibition of infection of HOS.T4.R5 cells by HIV-1BaL pseudovirus

CCC(C)[C@H](NC(=O)[C@@H](N)CCCNC(=N)N)C(=O)N[C@@H](CC(N)=O)C(=O)N[C@@H](CC(N)=O)C(=O)N[C@H](C(=O)N1CC(n2cc([C]34[CH]5[CH]6[CH]7[CH]3[Fe]6754389%10[CH]4[CH]3[CH]8[CH]9[CH]4%10)nn2)C[C@H]1C(=O)N[C@@H](Cc1c[nH]c2ccccc12)C(=O)N[C@@H](CO)C(=O)N[C@@H](CCC(=O)O)C(=O)N[C@@H](C)C(=O)N[C@@H](CCSC)C(=O)N[C@@H](CCSC)C(=O)NCCC(=O)N[C@@H](CCC(N)=O)C(=O)NCCC(=O)N[C@@H](CS)C(N)=O)C(C)CC (stereo partly drawn) [KR13, RINNIXWSEAMMβAQβAC-NH2]
p24 release / virolysis of HIV-1BaL pseudovirus [1]: could cause virolysis, though with lower potency than AuNP-KR13
viral disruption by DLS [2]: showed viral disruption
IC50 [3]: 23 ± 6 nM
